Pooled drug test results. Numbers come from NIAID ChemDB, via PubChem.

MIC bound: limit read from a one-dose screen. Inhibition is in % at the dose shown (toxicity tests: loss of growth or viability). Blank or dashed fields: not listed here. ICn is the concentration giving n% inhibition. ECn: concentration that inhibits the pathogen or its effect by n%. Lines come from different laboratories, so protocols vary. MIC50, MIC90 and the like: level of inhibition, or share of isolates inhibited.

smiles | strain or isolate | dose | test | target | method | read-out | cell line | organism | value
Nc1nccnc1C(=O)O | H37Rv | 12.5 µg/mL | culture |  | BACTEC | inhibition |  | Mycobacterium tuberculosis | 2%
Nc1nccc(NCCCN2CCOCC2)n1 | H37Rv |  | culture |  |  | MIC |  | Mycobacterium tuberculosis | >100 µg/mL
Cc1ccc(S(=O)(=O)N/N=c2\c(C)c(C3=NS(=O)(=O)c4cc(S(N)(=O)=O)c(Cl)cc4N3)oc3c(Cl)cc(Cl)cc23)cc1 | H37Rv | 6.25 µg/mL | culture |  | resazurin | inhibition |  | Mycobacterium tuberculosis | 2%
O=C(/C=C/c1ccccc1)Nc1nnc(NC2CC2)s1 |  |  | target | Polymerase |  | IC50 |  | Human cytomegalovirus | >25 µM
CCOC(=O)NN(C(=O)OCC)c1ccc(N=Nc2ccc(OC)cc2)n1C | H37Rv | 6.25 µg/mL | culture |  | BACTEC | inhibition |  | Mycobacterium tuberculosis | 31%
O=S(c1ccc(Cl)cc1)c1ccc(Cl)cc1 | H37Rv |  | culture |  |  | MIC |  | Mycobacterium tuberculosis | >100 µg/mL
COC(=O)C1C2CCCCC1C(=O)O2 | H37Rv |  | culture |  | BACTEC | MIC bound |  | Mycobacterium tuberculosis | >12.5 µg/mL
O=C(Nc1nnc(NCCCNC2CCCCC2)s1)c1cc(F)cc(F)c1 |  |  | target | Polymerase |  | IC50 |  | Human cytomegalovirus | >25 µM
CC(=O)c1ccc(-c2cncc(N3CCN(c4cccc(C)c4C)CC3)n2)s1 |  | 10 µM | target | UL97 kinase |  | inhibition |  | Cytomegalovirus | >15%
NCCC(=O)O | H37Rv |  | culture |  |  | MIC |  | Mycobacterium tuberculosis | >100 µg/mL
CO[C@@]12[C@H](COC(N)=O)C3=C(C(=O)C(C)=C(N)C3=O)N1C[C@H]1[C@@H]2N1C(=O)C1N2C(=O)[C@@H](NC(=O)Cc3ccccc3)[C@H]2SC1(C)C | TAC-R |  | culture |  |  | MIC |  | Mycobacterium tuberculosis | <0.1 µg/mL
O=C(/C=C/c1ccccc1Cl)Nc1nnc(NCCc2cnc[nH]2)s1 |  |  | target | Polymerase |  | IC50 |  | Human cytomegalovirus | <25 µM
CSc1ccc(-c2cncc(N3CCC(c4ccccc4)CC3)n2)cc1 |  | 1 µM | target | UL97 kinase |  | inhibition |  | Cytomegalovirus | <50%
O=[N+]([O-])c1ccc(O)c([As](=O)(O)O)c1 | H37Rv |  | culture |  |  | MIC |  | Mycobacterium tuberculosis | >100 µg/mL
COc1ccc(-c2cncc(N3CCC(c4ccccc4)CC3)n2)cc1F |  | 10 µM | target | UL97 kinase |  | inhibition |  | Cytomegalovirus | >15%
Cc1cc(C)cc(OCC(=O)O)c1 | H37Rv |  | culture |  |  | MIC |  | Mycobacterium tuberculosis | >100 µg/mL
COc1ccc(CCNCCNCCc2ccc(Cl)cc2Cl)cc1OC |  |  | culture |  |  | MIC |  | Mycobacterium tuberculosis | 50 µM
O=C(O)CNCC(=O)O | H37Rv |  | culture |  |  | MIC |  | Mycobacterium tuberculosis | >100 µg/mL
CCn1cc(C(=O)O)c(=O)c2nc(S(C)=O)sc21 | H37Rv |  | culture |  | BACTEC | MIC bound |  | Mycobacterium tuberculosis | >12.5 µg/mL
Fc1ccccc1N1CCN(c2cncc(-c3ccoc3)n2)CC1 |  | 1 µM | target | UL97 kinase |  | inhibition |  | Cytomegalovirus | <50%
CC[N+]([O-])(CC)CCNc1ccc(CO)c2sc3ccccc3c(=O)c12.O=CO | H37Rv |  | culture |  | BACTEC | MIC bound |  | Mycobacterium tuberculosis | >12.5 µg/mL
CC(=O)NCCc1ccc(C(=O)O)cc1 | H37Rv |  | culture |  |  | MIC |  | Mycobacterium tuberculosis | >100 µg/mL
CCOc1ccc2ccccc2c1C(=O)Nc1nnc(NCC2CCCO2)s1 |  |  | target | Polymerase |  | IC50 |  | Human cytomegalovirus | >25 µM
C=C(O)Oc1cc(OC(C)=O)ccc1OC(C)=O | H37Rv |  | culture |  |  | MIC |  | Mycobacterium tuberculosis | >100 µg/mL
Fc1ccc(N2CCCCC2)c(NC(=S)c2ccncc2)c1 |  | 10 µM | host protein | TYK2 | kinase activity | inhibition |  |  | 1.2%
C=CCc1ccc(OC)c(OC)c1 | 3021 |  | culture |  | turbidity | MIC90 |  | Candida albicans | 350 µg/mL
S=c1nc(-c2ccnc(-c3nc(=S)[nH][nH]3)c2)[nH][nH]1 | H37Rv | 12.5 µg/mL | culture |  | BACTEC | inhibition |  | Mycobacterium tuberculosis | 0%
CCCCCCCC/C=C/CCCCCCCC(=O)Nc1nnc(NCCC(c2ccccc2)c2ccccc2)s1 |  |  | target | Polymerase |  | IC50 |  | Human cytomegalovirus | <25 µM
Nc1nnc(N)s1 | H37Rv |  | culture |  |  | MIC |  | Mycobacterium tuberculosis | >100 µg/mL
CCCCC(CC)CNc1nnc(NC(=O)c2ccc3c(c2)C(=O)OC3=O)s1 |  |  | target | Polymerase |  | IC50 |  | Human cytomegalovirus | <25 µM
C=C(OP(=O)(O)O)c1c(C)cc(C)c(C)c1C | H37Rv |  | culture |  |  | MIC |  | Mycobacterium tuberculosis | >100 µg/mL
C#CC[C@@H](C(=O)N[C@H](/C=C/C(=O)OCC)C[C@@H]1CCNC1=O)n1cccc(NC(=O)c2cc(C)on2)c1=O | Serotype 87 |  | culture |  | cytopathic effect / XTT | EC50 | H1-HELA | Rhinovirus | 0.045 µM
COC(=O)c1nc(N)nc(C(=O)OC)c1C(=O)c1ccncc1 | H37Rv |  | culture |  | BACTEC | MIC bound |  | Mycobacterium tuberculosis | >12.5 µg/mL
C=CCN(CCNCCC(c1ccccc1)c1ccccc1)C1CCCCC1 |  |  | culture |  |  | MIC |  | Mycobacterium tuberculosis | 25 µM
O=C(CNC(=O)Nc1ccc(Cl)c(Cl)c1)N/N=C/c1ccccc1F | H37Rv | 12.5 µg/mL | culture |  | BACTEC | inhibition |  | Mycobacterium tuberculosis | 36%
Fc1ccc(-c2cncc(N3CCN(c4ccccc4)CC3)n2)cc1 |  |  | target | UL97 kinase |  | IC50 |  | Cytomegalovirus | <10 µM
O=C(Cc1c[nH]c2ccccc12)N=Nc1c(O)[nH]c2ccccc12 | H37Rv | 12.5 µg/mL | culture |  | BACTEC | inhibition |  | Mycobacterium tuberculosis | -13%
O=C(/C=C/c1ccccc1)Nc1nnc(NCCc2ccccc2)s1 |  |  | target | Polymerase |  | IC50 |  | Human cytomegalovirus | >25 µM
CC(=O)c1c(O)c(C)c(O)c2c1OC1=CC(=O)C(C(C)=O)C(=O)C12C | ETA-R |  | culture |  |  | MIC |  | Mycobacterium tuberculosis | 12.5 µg/mL
CC(C)C[C@@H](CO)NCCNC[C@]1(C)CCC[C@]2(C)c3ccc(C(C)C)cc3CC[C@@H]12 |  |  | culture |  |  | MIC |  | Mycobacterium tuberculosis | 25 µM
CC[N+](CC)=c1ccc2nc3c(cc(Nc4ccccc4)c4ccccc43)oc-2c1.[Cl-].[Cl][Zn][Cl] | H37Rv |  | culture |  | BACTEC | MIC bound |  | Mycobacterium tuberculosis | >128 µg/mL
CC1(C)CN(S(=O)(=O)c2ccc(Br)cc2)CC(C)(C)O1 | H37Rv |  | culture |  |  | MIC |  | Mycobacterium tuberculosis | >100 µg/mL
C[C@H](Cc1ccc(O)c(O)c1)[C@@H](C)Cc1ccc(O)c(O)c1 | CCC 128-2000 |  | culture |  | broth dilution | MIC100 |  | Candida albicans | 250 µg/mL
O=C(O)c1ccccc1S | H37Rv |  | culture |  |  | MIC |  | Mycobacterium tuberculosis | >100 µg/mL
CC(CNCCC(c1ccccc1)c1ccccc1)NCC12CC3CC(CC(C3)C1)C2 |  |  | culture |  |  | MIC |  | Mycobacterium tuberculosis | 6.25 µM
O=C(O)/C=C(\CC(=O)O)C(=O)O | H37Rv |  | culture |  |  | MIC |  | Mycobacterium tuberculosis | >100 µg/mL
CC(C)CC(C)NCCNCc1ccccc1F |  |  | culture |  |  | MIC |  | Mycobacterium tuberculosis | 50 µM
O=[N+]([O-])c1ccc(/C=N/Nc2nnc3c4ccccc4c4ncccc4c3n2)o1 | H37Rv |  | culture |  |  | MIC bound |  | Mycobacterium tuberculosis | >6.25 µg/mL
c1ccc(CCCNCCNCCN2CCOCC2)cc1 |  |  | culture |  |  | MIC |  | Mycobacterium tuberculosis | 50 µM
CC(C)(C)C(=O)N/N=C/c1ccc([N+](=O)[O-])s1 | H37Rv |  | culture |  | BACTEC | MIC bound |  | Mycobacterium tuberculosis | ≤12.5 µg/mL
Cc1ccc2cccnc2c1 | H37Rv |  | culture |  |  | MIC |  | Mycobacterium tuberculosis | 100 µg/mL
CCCCCCCC/C=C/CCCCCCCC(=O)Nc1nnc(NCCSc2ccccc2)s1 |  |  | target | Polymerase |  | IC50 |  | Human cytomegalovirus | <25 µM
CC(=O)c1ccc(N2CCN(c3cncc(-c4ccc(C(C)(C)C)cc4)n3)CC2)cc1 |  | 10 µM | target | UL97 kinase |  | inhibition |  | Cytomegalovirus | >15%
COc1ccccc1/C=N/N1C(=O)C2C3C=CC(O3)C2C1=O | H37Rv | 12.5 µg/mL | culture |  | BACTEC | inhibition |  | Mycobacterium tuberculosis | 3%
CCCC/C(=N/O)C(=O)O | H37Rv |  | culture |  |  | MIC |  | Mycobacterium tuberculosis | >100 µg/mL
Cc1cccc(N2CCN(c3cncc(-c4ccc(C(N)=O)cc4)n3)CC2C)c1 |  |  | target | UL97 kinase |  | IC50 |  | Cytomegalovirus | <10 µM
CSC(=S)N(C)c1nc(=[N+](C)C)ss1.O=S(=O)([O-])F | H37Rv |  | culture |  | BACTEC | MIC bound |  | Mycobacterium tuberculosis | >128 µg/mL
CN(c1ccccc1)S(=O)(=O)c1ccc(NC(=O)CC(=O)c2ccccc2)cc1 | H37Rv |  | culture |  |  | MIC |  | Mycobacterium tuberculosis | >100 µg/mL
CC1(C)[C@@H]2CC[C@@]1(C)[C@@H](NCCNC1Cc3ccccc3C1)C2 |  |  | culture |  |  | MIC |  | Mycobacterium tuberculosis | 50 µM
O=C(O)CSC(=S)N1CCOCC1 | H37Rv |  | culture |  | BACTEC | MIC |  | Mycobacterium tuberculosis | ≥128 µg/mL
c1ccc2c(-c3cncc(N4CCN(c5ccncc5)CC4)n3)csc2c1 |  |  | target | UL97 kinase |  | IC50 |  | Cytomegalovirus | <10 µM
CCOCCCNCCNCC(c1ccccc1)c1ccccc1 |  |  | culture |  |  | MIC |  | Mycobacterium tuberculosis | 50 µM
O=S(=O)(Nc1nccs1)c1ccccc1 | H37Rv |  | culture |  |  | MIC |  | Mycobacterium tuberculosis | >100 µg/mL
CCn1c2ccc([N+](=O)[O-])cc2c2c([N+](=O)[O-])c(NC(C)=O)ccc21 | H37Rv | 12.5 µg/mL | culture |  | BACTEC | inhibition |  | Mycobacterium tuberculosis | -33%
CC(O)C(C)(C)C(O)C(=O)NCCC(=O)O | H37Rv |  | culture |  |  | MIC |  | Mycobacterium tuberculosis | >100 µg/mL
C[C@H](NCCNC1CCCCCCC1)C1CCCCC1 |  |  | culture |  |  | MIC |  | Mycobacterium tuberculosis | 50 µM
CC(=O)Nc1ccc(S(=O)(=O)Nc2nccc(N3CCCCC3)n2)cc1 | H37Rv |  | culture |  |  | MIC |  | Mycobacterium tuberculosis | 100 µg/mL
O=C(Nc1nnc(NCCc2cnc[nH]2)s1)c1ccc(I)cc1 |  |  | target | Polymerase |  | IC50 |  | Human cytomegalovirus | >25 µM
Cc1oc(C)c2c1C(=O)c1ccccc1C2=O | H37Rv |  | culture |  | BACTEC | MIC bound |  | Mycobacterium tuberculosis | >12.5 µg/mL
O=C(Nc1nc2ccccc2[nH]1)c1ccc2ccccc2c1O | H37Rv |  | culture |  |  | MIC |  | Mycobacterium tuberculosis | 100 µg/mL

A second listing of 9 rows from above:

| smiles | strain or isolate | dose | test | target | method | read-out | cell line | organism | value |
|---|---|---|---|---|---|---|---|---|---|
| CC(=O)c1ccc(N2CCN(c3cncc(-c4ccc(C(C)(C)C)cc4)n3)CC2)cc1 |  | 10 µM | target | UL97 kinase |  | inhibition |  | Cytomegalovirus | >15% |
| Nc1nccnc1C(=O)O | H37Rv | 12.5 µg/mL | culture |  | BACTEC | inhibition |  | Mycobacterium tuberculosis | 2% |
| COc1ccccc1/C=N/N1C(=O)C2C3C=CC(O3)C2C1=O | H37Rv | 12.5 µg/mL | culture |  | BACTEC | inhibition |  | Mycobacterium tuberculosis | 3% |
| O=C(/C=C/c1ccccc1)Nc1nnc(NCCc2ccccc2)s1 |  |  | target | Polymerase |  | IC50 |  | Human cytomegalovirus | >25 µM |
| CC(O)C(C)(C)C(O)C(=O)NCCC(=O)O | H37Rv |  | culture |  |  | MIC |  | Mycobacterium tuberculosis | >100 µg/mL |
| O=C(O)CSC(=S)N1CCOCC1 | H37Rv |  | culture |  | BACTEC | MIC |  | Mycobacterium tuberculosis | ≥128 µg/mL |
| CCOC(=O)NN(C(=O)OCC)c1ccc(N=Nc2ccc(OC)cc2)n1C | H37Rv | 6.25 µg/mL | culture |  | BACTEC | inhibition |  | Mycobacterium tuberculosis | 31% |
| CCOCCCNCCNCC(c1ccccc1)c1ccccc1 |  |  | culture |  |  | MIC |  | Mycobacterium tuberculosis | 50 µM |
| O=C(O)c1ccccc1S | H37Rv |  | culture |  |  | MIC |  | Mycobacterium tuberculosis | >100 µg/mL |